# According to article PMC3904411:
# Target: ∆PcrG_((13–72)) (Pseudomonas aeruginosa strain 2192)
# Test: SPR
# Details: domain or fragment
row,Substance,Kd [µM]
1,ΔPcrV_((1–158)) (from UniProt G3XD49 1-158),42.8
2,ΔPcrV_((1–250)) (from UniProt G3XD49 1-250),21.8
3,ΔPcrV_((128–250)) (from UniProt G3XD49 128-250),95.1
4,ΔPcrV_((159–294)) (from UniProt G3XD49 159-294),0.806
